A mixed list of measured activities; the numbers were collected in NIAID ChemDB.

Shared fields: tests in culture; organism: HIV-1; cells: MT-4; measure: EC50

An empty or dashed field is not shown. ECn: concentration that inhibits the pathogen or its effect by n%. Rows are shuffled and stem from different studies.

CNC(=O)CC1(C(=O)NC)Nc2ccccc2S(=O)(=O)n2cccc21 ; strain: IIIB ; method: MTT ; value: >255 µM
CCOCn1c(Cc2cccc(OCC=NO)c2)c(CC)c(=O)[nH]c1=O ; strain: RT-K103N Y181C Mutant NNRTI-resistant ; method: cytopathic effect / MTT ; value: 54 µM
CC(C)=Nn1cc(C(=O)O)c(=O)c2cc(N)c(N3CCN(c4ccccn4)CC3)cc21 ; strain: IIIB ; method: MTT ; value: >1.11 µM
CCOCn1c(Cc2cccc(OCC3CO3)c2)c(CC)c(=O)[nH]c1=O ; strain: RT-K103N Y181C Mutant NNRTI-resistant ; method: cytopathic effect / MTT ; value: >80 µM
CO[C@H]([C@@H]1OC[C@@](O)(CO)[C@H]1N=[N+]=[N-])n1cc(C)c(=O)[nH]c1=O ; strain: IIIB ; method: ELISA / antigen ; value: >300 µM
CCOC(=O)C12CC(=O)N1c1ccccc1N(C)n1cccc12 ; strain: IIIB ; method: MTT ; value: >369 µM
C=CCCc1cccc(Cc2c(CC)c(=O)[nH]c(=O)n2COCC)c1 ; strain: IIIB ; method: cytopathic effect / MTT ; value: 0.3 µM
C[C@H](CS)C(=O)N1CCC[C@@H]1c1nc2ncncc2[nH]1 ; strain: IIIB ; method: MTT ; value: >59.05 µg/mL
NCCC[C@@H](N)CC(=O)NCN ; strain: IIIB ; method: cytopathic effect / MTT ; value: >100 µg/mL
COc1ccc(/C=N/Nc2nc(-c3ccc(Cl)cc3)cs2)cc1 ; strain: IIIB ; method: MTT ; value: >125 µM
CCOCn1c(Sc2cccc(Cl)c2)cc(=O)[nH]c1=O ; strain: NL4-3 ; method: MTT ; value: 0.015 µg/mL
CCOC(=O)c1cccn1S(=O)(=O)c1cc(Cl)ccc1NC(=O)CC ; strain: IIIB ; method: cytopathic effect / XTT ; value: 1 µM
CCCCC1(CCc2cccc(NS(=O)(=O)c3ccc(C)cc3)c2)COC(=O)C(C(CC)c2cccc(NS(=O)(=O)c3ccc(C)cc3)c2)=C1O ; strain: IIIB ; value: >66.6 µM
Nc1nc(N)c2ncn([C@H]3CC[C@](/C=C/P(=O)(O)O)(C(F)(F)F)C3)c2n1 ; method: MTT ; value: 69.7 µM
C[C@H](CSCC(N)=O)C(=O)N1CCC[C@@H]1C(=O)O ; strain: IIIB ; method: MTT ; value: >3.12 µg/mL
CCOC(=O)c1cccn1S(=O)(=O)c1ccc(NC(C)=O)cc1 ; strain: IIIB ; method: cytopathic effect / XTT ; value: >83.8 µM
CN(C)C(=O)c1c2c(c(O)c(=O)n1C)C(=O)N(Cc1ccc(F)c(Cl)c1)CC2 ; method: p24 ; value: <10 µM
C=CCCc1cccc(Cc2[nH]c(=S)[nH]c(=O)c2CC)c1 ; strain: IIIB ; method: cytopathic effect / MTT ; value: >80 µM
C=Cn1cc(C(=O)O)c(=O)c2cc(N)c(N3CCN(c4ccccn4)CC3)cc21 ; strain: IIIB ; method: MTT ; value: 0.033 µM
CC(C)C#C[C@]1(C(F)(F)F)NC(=O)Nc2ccc(F)c(F)c21 ; changes: RT-K103N ; method: p24 ; value: <0.009 µM
C/C(=N\Nc1nc(-c2ccc(Br)cc2)cs1)c1ccc(-n2ccnc2)cc1 ; strain: IIIB ; method: MTT ; value: >87.33 µM
CN(C)C(=O)c1[nH]c(=O)c(O)c2c1CCN(Cc1ccc(F)cc1)C2=O ; method: p24 ; value: <10 µM
CCOC(=O)c1cccn1S(=O)(=O)c1cc(Cl)ccc1NC=O ; strain: IIIB ; method: cytopathic effect / XTT ; value: 1 µM
CC(C)c1c(Cc2cccc3ccccc23)n(COCCO)c(=O)[nH]c1=O ; strain: LAV ; value: 0.076 µM
Nn1cc(C(=O)O)c(=O)c2cc(O)c(N3CCN(c4ccccn4)CC3)cc21 ; strain: IIIB ; method: MTT ; value: 28.44 µM
CCOCn1c(Cc2cccc3ccccc23)c(C)c(=O)[nH]c1=O ; strain: LAV ; value: 0.225 µM
C=CCOc1cccc(Cc2c(CC)c(=O)[nH]c(=O)n2COCC)c1 ; strain: IIIB ; method: cytopathic effect / MTT ; value: 0.5 µM
N#Cc1ccc(-c2csc(N/N=C/c3ccccc3O)n2)cc1 ; strain: IIIB ; method: MTT ; value: >104 µM
Nc1ncnc2c1ncn2[C@H]1CC[C@](CCP(=O)(O)O)(C(F)(F)F)C1 ; method: MTT ; value: 8.3 µM
Nn1cc(C(=O)O)c(=O)c2ccc(N3CCN(c4ccccn4)CC3)cc21 ; strain: IIIB ; method: MTT ; value: 6.32 µM
CCOC(=O)c1cccn1S(=O)(=O)c1cc(Cl)ccc1NC(=O)c1ccc(Cl)cc1 ; strain: IIIB ; method: cytopathic effect / XTT ; value: 25 µM
C=C(C)[C@@H]1CC[C@]2(C(=O)NCCCCCCCC(=O)N[C@@H](CC(C)C)[C@@H](O)CC(=O)O)CC[C@]3(C)[C@H](CC[C@@H]4[C@@]5(C)CC[C@H](O)C(C)(C)[C@@H]5CC[C@]43C)[C@@H]12 ; strain: MN ; method: cytopathic effect / MTT ; value: 0.04 µM
CN(c1[nH]c(=O)c(O)c2c1CCN(Cc1ccc(F)cc1)C2=O)S(C)(=O)=O ; method: p24 ; value: <10 µM
CCOC(=O)c1cccn1S(=O)(=O)c1cc(Cl)ccc1NC(=O)CC(C)C ; strain: IIIB ; method: cytopathic effect / XTT ; value: 4.6 µM
C/C(=N\Nc1nc(-c2ccc(C#N)cc2)cs1)c1ccc(Cl)c(Cl)c1 ; strain: IIIB ; method: MTT ; value: >17.1 µM
Cc1cn([C@H]2CC[C@@H](CO)[C@@H]2F)c(=O)[nH]c1=O ; strain: RF ; value: 100 µg/mL
O=C(O)/C(O)=C/c1ccc(CCc2ccccc2)cn1 ; strain: IIIB ; method: cytopathic effect / MTT ; value: >74 µM
N#Cc1cc(Cl)cc(Oc2c(Br)ccc(CC(=O)Nc3ccc(S(N)(=O)=O)cc3Cl)c2F)c1 ; changes: Y188L ; value: 0.034 µM
CCc1c(Cc2cc(C)cc(C)c2)n(COCC#Cc2cccc(CO)c2)c(=O)[nH]c1=O ; strain: IIIB ; changes: K103N + Y181C ; method: MTT ; value: 1.8 µM
FC(F)(F)[C@@]1(C#CC2CC2)OC(=S)Nc2ccc(Cl)cc21 ; strain: 190A ; changes: NNRTI-resistant (RT 103N/181C) ; method: MTT ; value: 0.006 µM
CCOC(=O)c1cccn1S(=O)(=O)c1cccc(NC(N)=O)c1 ; strain: IIIB ; method: cytopathic effect / XTT ; value: >200 µM
Nc1nc2c(ncn2[C@H]2CC[C@](CCP(=O)(O)O)(C(F)(F)F)C2)c(=O)[nH]1 ; method: MTT ; value: 20.2 µM
CCc1c(Cc2ccccc2C)n(COCC#Cc2ccc(N)cc2)c(=O)[nH]c1=O ; strain: IIIB ; changes: K103N + Y181C ; method: MTT ; value: >39 µM
Nn1cc(C(=O)O)c(=O)c2ccc(N3CCN(c4cccc(C(F)(F)F)c4)CC3)cc21 ; strain: IIIB ; method: MTT ; value: >0.69 µM
C=CCOc1cccc(Cc2[nH]c(=O)[nH]c(=O)c2CC)c1 ; strain: IIIB ; method: cytopathic effect / MTT ; value: >20 µM
CCc1c(Cc2cc(C)cc(C)c2)n(COCC#Cc2cc3ccccc3c3ccccc23)c(=O)[nH]c1=O ; strain: IIIB ; changes: WT ; method: MTT ; value: 0.3 µM
CC(C)Cn1c(C(=O)N(C)C)c2c(c(O)c1=O)C(=O)N(Cc1ccc(F)c(Cl)c1)CC2 ; method: p24 ; value: <10 µM
O/C(=C\c1cc(CCc2ccccc2)ncn1)c1nccs1 ; strain: IIIB ; method: cytopathic effect / MTT ; value: >12.5 µg/mL
CCc1c(Cc2cc(C)cc(C)c2)n(COCC#Cc2ccc(N)cc2)c(=O)[nH]c1=O ; strain: IIIB ; changes: Y181C ; method: MTT ; value: 1.8 µM
CCOCn1c(Cc2ccccc2)c(CO)c(=O)[nH]c1=O ; strain: IIIB ; value: 22 µM
C(=N\Nc1nc(-c2ccccc2)cs1)/c1ccccn1 ; strain: IIIB ; method: MTT ; value: >2.97 µM
CCCCC1(CCc2cccc(NS(=O)(=O)c3ccccc3)c2)COC(=O)C(C(CC)c2cccc(NS(=O)(=O)c3ccccc3)c2)=C1O ; strain: IIIB ; value: 15.1 µM
CCOCn1c(Cc2ccccc2)c(I)c(=O)[nH]c1=O ; strain: IIIB ; value: 0.021 µM
O/C(=C\c1cc(CCc2ccccc2)ncn1)c1cccnc1 ; strain: IIIB ; method: cytopathic effect / MTT ; value: >12.5 µg/mL
C[C@H](CS)C(=O)N1CCC[C@@H]1c1nc2c(Cl)cccc2[nH]1 ; strain: IIIB ; method: MTT ; value: >28.17 µg/mL
CCOC(=O)c1cccn1S(=O)(=O)c1ccc([N+](=O)[O-])cc1 ; strain: IIIB ; method: cytopathic effect / XTT ; value: >200 µM
CCN(CC)C(=O)c1c2c(c(O)c(=O)n1C)C(=O)N(Cc1ccc(F)cc1)CC2 ; method: p24 ; value: <10 µM
CCCc1c(Cc2ccc3ccccc3c2)n(COCc2ccccc2)c(=O)[nH]c1=O ; strain: LAV ; value: 6.688 µM
Cc1c(C(=O)O)c(=O)c2cc(N)c(N3CCN(c4ccccn4)CC3)cc2n1C ; strain: IIIB ; method: MTT ; value: >177 µM
C=CCOc1cccc(Cc2[nH]c(=O)c(CC)c(O)c2CC)c1 ; strain: RT-Y181C Mutant NNRTI-resistant ; method: cytopathic effect / MTT ; value: >20 µM
C=C1CN(S(=O)(=O)c2ccc(C)cc2)CCCN(Cc2ccccc2)CCCN(S(=O)(=O)c2ccc(C)cc2)C1 ; strain: IIIB ; value: 2 µM
CC1(C)[C@@H](O[C@H]2O[C@H](C(=O)O)[C@@H](O)[C@H](O)[C@H]2O[C@@H]2O[C@H](C(=O)O)[C@@H](O)[C@H](O)[C@H]2O)CC[C@]2(C)[C@H]3C(=O)C=C4[C@@H]5C[C@@](C)(C(=O)O)CC[C@]5(C)CC[C@@]4(C)[C@]3(C)CC[C@@H]12 ; strain: IIIB ; method: antigen ; value: <300 µM
CCCCC1(CCc2cccc(NS(=O)(=O)c3ccc(C(F)(F)F)cn3)c2)COC(=O)C(C(CC)c2cccc(NS(=O)(=O)c3ccc(C(F)(F)F)cn3)c2)=C1O ; strain: IIIB ; value: 0.6 µM
O=C(O)c1[nH]c(=O)c(O)c2c1CCN(Cc1ccc(F)cc1)C2=O ; method: p24 ; value: <10 µM
CCc1c(Cc2cccc3ccccc23)n(COC)c(=O)[nH]c1=O ; strain: LAV ; value: 0.213 µM
CN(C)C(=O)c1c2c(c(O)c(=O)n1C)C(=O)N(Cc1ccc(F)cc1)CC2 ; method: p24 ; value: <10 µM
COC(=O)CC1c2cccn2S(=O)(=O)c2ccccc2N1C(=O)c1ccc(C)cc1 ; strain: IIIB ; method: MTT ; value: >244 µM
O=C(/C=C(\O)c1c[nH]c2ccc(Cl)cc12)c1nn[nH]n1 ; strain: IIIB ; method: cytopathic effect / MTT ; value: >35 µM
NCCCC1CC(=O)NCN1 ; strain: IIIB ; method: cytopathic effect / MTT ; value: >100 µg/mL
O/C(=C\c1cc(CCc2ccccc2)ncn1)c1ccccc1 ; strain: IIIB ; method: cytopathic effect / MTT ; value: >12.5 µg/mL
CO[C@@H]([C@@H]1OC[C@@](O)(CO)[C@H]1N=[N+]=[N-])n1cc(C)c(=O)[nH]c1=O ; strain: IIIB ; method: ELISA / antigen ; value: >300 µM
Oc1ccccc1/C=N/Nc1nc(-c2ccc(Br)cc2)cs1 ; strain: IIIB ; method: MTT ; value: >48.7 µM
CCOC(=O)c1cccn1S(=O)(=O)c1cc(Cl)ccc1NC(=O)CN1CCOCC1 ; strain: IIIB ; method: cytopathic effect / XTT ; value: 2.4 µM
C[C@H](CS)C(=O)N1CCC[C@@H]1c1nc2ncccc2[nH]1 ; strain: IIIB ; method: MTT ; value: 0.24 µg/mL
CCN(CC)C(=O)c1[nH]c(=O)c(O)c2c1CCN(Cc1ccc(F)cc1)C2=O ; method: p24 ; value: <10 µM
Cc1nc(/C(O)=C/c2cc(CCc3ccccc3)ncn2)cs1 ; strain: IIIB ; method: cytopathic effect / MTT ; value: >12.5 µg/mL
C=CCOc1cccc(Cc2nc(SC)[nH]c(=O)c2CC)c1 ; strain: IIIB ; method: cytopathic effect / MTT ; value: >80 µM

The first 6 rows once more:

SMILES	strain	changes	method	value
CNC(=O)CC1(C(=O)NC)Nc2ccccc2S(=O)(=O)n2cccc21	IIIB		MTT	>255 µM
CCOCn1c(Cc2cccc(OCC=NO)c2)c(CC)c(=O)[nH]c1=O	RT-K103N Y181C Mutant NNRTI-resistant		cytopathic effect / MTT	54 µM
CC(C)=Nn1cc(C(=O)O)c(=O)c2cc(N)c(N3CCN(c4ccccn4)CC3)cc21	IIIB		MTT	>1.11 µM
CCOCn1c(Cc2cccc(OCC3CO3)c2)c(CC)c(=O)[nH]c1=O	RT-K103N Y181C Mutant NNRTI-resistant		cytopathic effect / MTT	>80 µM
CO[C@H]([C@@H]1OC[C@@](O)(CO)[C@H]1N=[N+]=[N-])n1cc(C)c(=O)[nH]c1=O	IIIB		ELISA / antigen	>300 µM
CCOC(=O)C12CC(=O)N1c1ccccc1N(C)n1cccc12	IIIB		MTT	>369 µM